A mixed list of measured activities; the numbers were collected in NIAID ChemDB.

Shared fields: whole-cell or culture tests; organism: HIV-1; read-out: EC50

Neighbouring rows are from separate reports. ECn is the concentration giving n% inhibition of infection, replication or growth. An empty or dashed field is not shown.

| SMILES | method | cells | mutations | strain or isolate | result |
|---|---|---|---|---|---|
| Nc1ccn([C@H]2CC[C@@H](CO)O2)c(=O)n1 | p24 | MT-4 |  | 126 WT | 0.35 µM |
| Nc1ncnc2c1ncn2[C@H]1C=C[C@@H](CO)O1 | p24 | PBL |  | IIIB | 2.3 µM |
| CCOCn1c(Cc2ccccc2)c(C(C)C)c(=O)[nH]c1=O |  | MT-4 |  | IIIB | 0.015 µM |
| Fc1cccc(F)c1CCNC(=S)Nc1nccs1 | cytopathic effect | MT-4 |  | IIIB | 0.04 µM |
| Cc1cn([C@H]2C[C@H](N=[N+]=[N-])[C@@H](CO)O2)c(=O)[nH]c1=O | cytopathic effect | MT-4 |  | FO-01.95 | 0.034 µM |
| Cc1cn([C@H]2C[C@H](N=[N+]=[N-])[C@@H](CO)O2)c(=O)[nH]c1=O | p24 | PBMC |  | IIIB | 0.003 µM |
| Cc1cn([C@H]2C[C@H](N=[N+]=[N-])[C@@H](CO)O2)c(=O)[nH]c1=O | cytopathic effect / XTT | CEM + CEM-SS |  | IIIB | 0.0025 µM |
| O=c1[nH]cnc2c1ncn2[C@H]1CC[C@@H](CO)O1 | p24 | PBMC |  | 9451 CLADE C CLADE C | 0.227 µM |
| C#Cc1ccc(Nc2nccc(Oc3c(C)cc(-c4cn(-c5ccc(C(=O)OC)cc5)nn4)cc3C)n2)cc1 | MTT | MT-4 | F227L and V106A | IIIB | >242 µM |
| O=c1[nH]cnc2c1ncn2[C@H]1CC[C@@H](CO)O1 | syncytia | C8166 |  | RF | 2.3 µM |
| Cc1cn([C@H]2C[C@H](N=[N+]=[N-])[C@@H](CO)O2)c(=O)[nH]c1=O | p24 | H9 | RT-K101I K103N Y181C G190A | B8 (RT K101I K103N Y181C G190A) | 0.03 µg/mL |
| CC1(C)C2=CC(=O)C(O)(c3ccccc3)C(=O)N2c2ccc(Cl)cc21 | cytopathic effect / MTT | MT-4 |  | RF | 0.69 µM |
| C#Cc1ccc(Nc2nccc(Oc3c(C)cc(-c4cn(CC(=O)Nc5ccc(S(C)(=O)=O)cc5)nn4)cc3C)n2)cc1 | MTT | MT-4 | L100I | IIIB | >6.36 µM |
| CC(C)=CCN1Cc2cc(Cl)cc3[nH]c(=S)n(c23)C[C@@H]1C | cytopathic effect / XTT | MT-4 |  | IIIB | 0.28 µM |
| CC(C)Nc1cccnc1N1CCN(C(=O)c2cc3cc(NS(C)(=O)=O)ccc3[nH]2)CC1 | p24 | H9 |  | MN | 0.18 µg/mL |
| COC(=O)[C@H](C)NP(=O)(OC[C@@H]1C=C[C@H](n2cc(C)c(=O)[nH]c2=O)O1)Oc1ccc(Br)cc1 | p24 | PBMC | RT-M41L T215Y | RTMDR | >0.001 µM |
| Cc1c(O)cccc1C(=O)N[C@@H](CSc1ccccc1)[C@H](O)CN1C[C@H]2CCCC[C@H]2C[C@H]1C(=O)NC(C)(C)C | cytopathic effect / MTT | MT-4 | SQV-resistant (PR G48V L90M) | NL4-3 | 0.106 µM |
| S=C(NCCc1ccccn1)Nc1ccc(Br)cn1 | cytopathic effect / XTT | MT-4 | RT-Y181C | T3-16(RT-Y181C) | 0.7 µM |
| COc1ccc(S(=O)(=O)N(CC(C)C)C[C@@H](O)[C@H](Cc2ccccc2)NC(=O)O[C@H]2CO[C@@H]3O[C@H]4OCC[C@H]4[C@@H]32)cc1 | p24 / luminescence | PBMC |  | ERS104pre | 0.3474 µM |
| Cc1cn([C@H]2C[C@H](N=[N+]=[N-])[C@@H](CO)O2)c(=O)[nH]c1=O | RT activity | PBMC |  | BaL | 0.008 µM |
| C#Cc1ccc(Nc2nccc(Oc3c(C)cc(-c4cn(CC(=O)Nc5ccc(F)cc5)nn4)cc3C)n2)cc1 | MTT | MT-4 |  | RES056 | >1.41 µM |
| CCc1csc(NC(=S)NCCc2ccccn2)n1 | cytopathic effect | MT-4 |  | IIIB | 0.34 µM |
| C#Cc1ccc(Nc2nccc(Oc3c(C)cc(-c4cn(Cc5cccc([N+](=O)[O-])c5)nn4)cc3C)n2)cc1 | MTT | MT-4 | K103N | IIIB | 0.38 µM |
| S=C(NCCc1cccs1)Nc1ccc(Br)cn1 | plaque count | HT4 + HeLa | RT-M41L L210W T215Y | M709-1 Clinical isolate NRTI-resistant | 0.01 µM |
| Cc1cn([C@H]2C=C[C@@H](CO)O2)c(=O)[nH]c1=O | recombinant virus assay | MT-2 | A62V/T69ins/V75I/A98G/K103S/G190A | Clinical isolate | 6.24 µM |
| CC1(C)C2=CC(=O)C(c3ccccc3)([N+](=O)[O-])C(=O)N2c2ccc(Cl)cc21 | cytopathic effect / MTT | MT-4 |  | RF | 13.4 µM |
| C#Cc1ccc(Nc2nccc(Oc3c(C)cc(-c4cn(Cc5ccccc5[N+](=O)[O-])nn4)cc3C)n2)cc1 | MTT | MT-4 | L100I | IIIB | >7.22 µM |
| Nc1ccn([C@H]2CC[C@@H](CO)O2)c(=O)n1 | cytopathic effect | MT-4 | RT-T69N K70R Q151M | NI-10.93 (HXB2 RT T69N K70R Q151M) | 7.3 µM |
| C#Cc1ccc(Nc2nccc(Oc3c(C)cc(-c4cn(Cc5ccc([N+](=O)[O-])cc5)nn4)cc3C)n2)cc1 | MTT | MT-4 | Y188L | IIIB | ≥36.49 µM |
| CC(C)CN(C[C@@H](O)[C@H](Cc1ccccc1)NC(=O)O[C@H]1CCOC1)S(=O)(=O)c1ccc(N)cc1 | p24 / luminescence | MT-4 | M46I V82F I84V | NL4-3 | 0.5329 µM |
| CCC(C)Oc1cc(=O)[nH]c(Sc2ccc(C)cc2)n1 | cytopathic effect / MTT | MT-4 |  | IIIB | 110 µM |
| O=c1[nH]cnc2c1ncn2[C@H]1CC[C@@H](CO)O1 | cytopathic effect | MT-4 |  | LZ-05.95 | 15.7 µM |
| Cc1ccnc2c1NC(=O)c1cccnc1N2C1CC1 | RT activity / fluorescence |  | K103N |  | >67.5 µM |
| CCCCSc1nc(N)cc(Sc2ccc3ccccc3c2)n1 | cytopathic effect / MTT | MT-4 |  | IIIB | >68 µM |
| COC(=O)N[C@@H](Cc1c[nH]c2ccccc12)C(=O)NCCCC[C@@H](CO)N(CC(C)C)S(=O)(=O)c1ccc(N)cc1 | cytopathic effect / MTT | MT-4 | PR-M46I V82T I84V 10R 63P | NL4-3 | 0.957 µM |
| COc1ccc(S(=O)(=O)N(CC(C)C)C[C@@H](O)[C@H](Cc2ccccc2)NC(=O)O[C@H]2CO[C@H]3O[C@@H]4OCC[C@@H]4[C@H]32)cc1 | p24 / luminescence | MT-4 | L10F V32I M46I I54M A71V I84V | NL4-3 | 0.038 µM |
| C#Cc1ccc(Nc2nccc(Oc3c(C)cc(-c4cn(Cc5cccc(C(=O)OC)c5)nn4)cc3C)n2)cc1 | MTT | MT-4 | Y188L | IIIB | >4.78 µM |
| Nc1cc(Nc2cccc3ccccc23)nc(Cl)n1 | cytopathic effect / MTT | MT-4 |  | IIIB | >7.6 µM |
| O=c1[nH]cnc2c1ncn2[C@H]1CC[C@@H](CO)O1 | syncytia | C8166 |  | IIIB | 12 µM |
| Cc1cn([C@H]2C=C[C@@H](COC(=O)CNC(=O)C(=O)/C=C(\O)c3cc(OCc4ccccc4)cc(OCc4ccccc4)c3)O2)c(=O)[nH]c1=O | RT activity | CEM + CEM-SS |  | LAI | 3.5 µM |
| C#Cc1ccc(Nc2nccc(Oc3c(C)cc(-c4cn(-c5ccc(C(=O)O)cc5)nn4)cc3C)n2)cc1 | MTT | MT-4 |  | RES056 | 3.27 µM |
| O=C(CNC(=O)C(=O)/C=C(\O)c1cccn1Cc1ccc(F)cc1)OC[C@@H]1CC[C@H](n2ccc(=O)[nH]c2=O)O1 | RT activity | CEM + CEM-SS |  | LAI | >10 µM |
| Nc1nc(=O)n([C@@H]2CS[C@H](CO)O2)cc1F | recombinant virus assay | MT-2 | K103N/Y188L | Clinical isolate | 0.1806 µM |
| Cc1cn([C@H]2C=C[C@@H](COC(=O)CCNC(=O)C(=O)/C=C(\O)c3cc(OCc4ccccc4)cc(OCc4ccccc4)c3)O2)c(=O)[nH]c1=O | RT activity | PBMC |  | BaL | 0.93 µM |
| CCC(C)Oc1cc(=O)[nH]c(Sc2ccccc2C)n1 | cytopathic effect / MTT | MT-4 |  | IIIB | 37 µM |

6 of the rows above, restated:

{"SMILES": "C#Cc1ccc(Nc2nccc(Oc3c(C)cc(-c4cn(Cc5ccc([N+](=O)[O-])cc5)nn4)cc3C)n2)cc1", "method": "MTT", "cells": "MT-4", "mutations": "Y188L", "strain or isolate": "IIIB", "result": "≥36.49 µM"}
{"SMILES": "O=c1[nH]cnc2c1ncn2[C@H]1CC[C@@H](CO)O1", "method": "syncytia", "cells": "C8166", "strain or isolate": "IIIB", "result": "12 µM"}
{"SMILES": "CC(C)CN(C[C@@H](O)[C@H](Cc1ccccc1)NC(=O)O[C@H]1CCOC1)S(=O)(=O)c1ccc(N)cc1", "method": "p24 / luminescence", "cells": "MT-4", "mutations": "M46I V82F I84V", "strain or isolate": "NL4-3", "result": "0.5329 µM"}
{"SMILES": "Cc1cn([C@H]2C=C[C@@H](COC(=O)CNC(=O)C(=O)/C=C(\\O)c3cc(OCc4ccccc4)cc(OCc4ccccc4)c3)O2)c(=O)[nH]c1=O", "method": "RT activity", "cells": "CEM + CEM-SS", "strain or isolate": "LAI", "result": "3.5 µM"}
{"SMILES": "C#Cc1ccc(Nc2nccc(Oc3c(C)cc(-c4cn(Cc5cccc([N+](=O)[O-])c5)nn4)cc3C)n2)cc1", "method": "MTT", "cells": "MT-4", "mutations": "K103N", "strain or isolate": "IIIB", "result": "0.38 µM"}
{"SMILES": "O=c1[nH]cnc2c1ncn2[C@H]1CC[C@@H](CO)O1", "method": "syncytia", "cells": "C8166", "strain or isolate": "RF", "result": "2.3 µM"}